Results of unrelated studies side by side (data: NIAID ChemDB).

Common to all: growth or infection tests; species: Mycobacterium avium complex; measure: MIC

Conditions beyond the fields shown may differ between rows.

compound	strain or isolate	value
CC[C@H]1OC(=O)[C@H](C)[C@@H](OC2C[C@@](C)(OC)[C@@H](O)[C@H](C)O2)[C@H](C)[C@@H](O[C@@H]2O[C@H](C)C[C@H](N(C)C)[C@H]2O)C(C)(O)C[C@@H](C)/C(=N\OCCCCOc2ccccc2)[C@H](C)[C@@H](O)[C@]1(C)O	20039 (clarithromycin-susceptible)	1.56 µg/mL
COc1ccc(C(F)(F)F)cc1NCc1cnc2nc(N)nc(N)c2c1C	NJ-168 serovar 4	≤0.128 µg/mL
NC[C@H]1O[C@H](O[C@H]2[C@H](O)[C@@H](O[C@H]3O[C@H](CO)[C@@H](O)[C@H](N)[C@H]3O)[C@H](N)C[C@@H]2N)[C@H](N)C[C@@H]1O	ATCC 35718	8 µg/mL
CO[C@H]1/C=C/O[C@@]2(C)Oc3c(C)c(O)c4c(O)c(c5c(c4c3C2=O)NC2(CCN(CC(C)C)CC2)N=5)=NC(=O)/C(C)=C\C=C\[C@H](C)[C@H](O)[C@@H](C)[C@@H](O)[C@@H](C)[C@H](OC(C)=O)[C@@H]1C	242-5	0.125 µg/mL
Cc1c(CN2CCN(C)CC2)cc(-c2ccccc2F)n1-c1cccc2ccccc12	103317	4 µg/mL
O=Cc1ccc2c(c1)C(=O)c1nc3ccncc3c(=O)n1-2	19075	5 µg/mL
COc1ccc(C)c(NCc2cnc3nc(N)nc(N)c3c2C)c1	NJ-168 serovar 1	≤0.128 µg/mL
O=C(NCN1CCOCC1)c1cnccn1	101	>128 µg/mL
CC[C@H]1OC(=O)[C@H](C)[C@@H](O[C@H]2C[C@@](C)(OC)[C@@H](OC(C)=O)[C@H](C)O2)[C@H](C)[C@@H](O[C@@H]2O[C@H](C)C[C@H](N(C)C)[C@H]2OC(=O)NN2CCCC2)C(C)(O)C[C@@H](C)/C(=N\OCCCC2CCCCC2)[C@H](C)[C@@H](O)[C@]1(C)O	20092 (clarithromycin-resistant)	3.13 µg/mL
CCCN(CCC)CNC(=O)c1cnccn1	101	128 µg/mL
CC[C@H]1OC(=O)[C@H](C)[C@@H](O[C@H]2C[C@@](C)(OC)[C@@H](OC(C)=O)[C@H](C)O2)[C@H](C)[C@@H](O[C@@H]2O[C@H](C)C[C@H](N(C)C)[C@H]2OC(=O)NNCc2ccccc2[N+](=O)[O-])C(C)(O)C[C@@H](C)/C(=N\OCCCC2CCCCC2)[C@H](C)[C@@H](O)[C@]1(C)O	20039 (clarithromycin-susceptible)	0.78 µg/mL
CCN(CC)CNC(=O)c1cnccn1	101	128 µg/mL
COC(OC)c1ccc2c(c1)C(=O)c1nc3ccncc3c(=O)n1-2	19075	5 µg/mL
Cc1c(CN2CCSCC2)cc(-c2ccccc2)n1-c1ccccc1	103317	>16 µg/mL
CS(=O)(=O)c1ccc2c(c1)C(=O)c1nc3ccncc3c(=O)n1-2	19075	>25 µg/mL
CN1CCN(CNC(=O)c2cnccn2)CC1	101	>128 µg/mL
CN1N=C(c2ccncc2)OC1c1cccc(Cl)c1	12592 PI	>20 µg/mL
CC[C@H]1OC(=O)[C@H](C)[C@@H](O[C@H]2C[C@@](C)(OC)[C@@H](O)[C@H](C)O2)[C@H](C)[C@@H](O[C@@H]2O[C@H](C)C[C@H](N(C)C)[C@H]2O)[C@](C)(OC)C[C@@H](C)C(=O)[C@H](C)[C@@H](O)[C@]1(C)O	F-2	4 µg/mL
O=C1c2cc(C(F)(F)F)ccc2-n2c1nc1ccncc1c2=O	19075	0.5 µg/mL
Cc1c(CN2CCSCC2)cc(-c2ccccc2Cl)n1-c1ccccc1F	103317	>16 µg/mL
NC(=O)c1cnc(Cl)cn1	ATCC49601	32 µg/mL
COc1ccc(C2OC(c3ccncc3)=NN2C)c(OC)c1	12592 PI	>20 µg/mL
NC[C@H]1O[C@H](O[C@H]2[C@H](O)[C@@H](O[C@H]3O[C@H](CO)[C@@H](O)[C@H](N)[C@H]3O)[C@H](N)C[C@@H]2N)[C@H](O)[C@@H](O)[C@@H]1O	ATCC 35718	8 µg/mL
COc1ccc(OC)c(C2OC(c3ccncc3)=NN2C)c1	12592 PI	>20 µg/mL
O=C1c2cc(Br)ccc2-n2c1nc1ccncc1c2=O	19075	0.25 µg/mL
CCCCN(CCCC)CNC(=O)c1cnccn1	ATCC49601	>128 µg/mL
CC[C@H]1OC(=O)[C@H](C)[C@@H](O[C@H]2C[C@@](C)(OC)[C@@H](OC(C)=O)[C@H](C)O2)[C@H](C)[C@@H](O[C@@H]2O[C@H](C)C[C@H](N(C)C)[C@H]2O)C(C)(O)C[C@@H](C)/C(=N\OCCCCc2ccccc2)[C@H](C)[C@@H](O)[C@]1(C)O	20096 (clarithromycin-resistant)	1.56 µg/mL
CN1N=C(c2ccncc2)OC1c1ccc(F)cc1	12592 PI	>20 µg/mL
CCCCN(CC)CNC(=O)c1cnccn1	ATCC49601	>128 µg/mL

Repeating the final 3 entries:

| compound | strain or isolate | value |
|---|---|---|
| CC[C@H]1OC(=O)[C@H](C)[C@@H](O[C@H]2C[C@@](C)(OC)[C@@H](OC(C)=O)[C@H](C)O2)[C@H](C)[C@@H](O[C@@H]2O[C@H](C)C[C@H](N(C)C)[C@H]2O)C(C)(O)C[C@@H](C)/C(=N\OCCCCc2ccccc2)[C@H](C)[C@@H](O)[C@]1(C)O | 20096 (clarithromycin-resistant) | 1.56 µg/mL |
| CN1N=C(c2ccncc2)OC1c1ccc(F)cc1 | 12592 PI | >20 µg/mL |
| CCCCN(CC)CNC(=O)c1cnccn1 | ATCC49601 | >128 µg/mL |